Compound potency records, mixed from different reports. Data source: NIAID ChemDB in PubChem.

All rows: tests in culture

Blank or dashed fields: not listed here. ECn: concentration that inhibits the pathogen or its effect by n%. Inhibition is in % at the dose shown (toxicity tests: loss of growth or viability). Neighbouring rows are from separate reports. A number after MIC or MFC names an inhibition level or a share of isolates. Fold resistance has wild type as its base. Two numbers with a dash give a range or band.

compound,read by,cells,endpoint,changes,species,strain,dose,result
CCOC(=O)c1cc(NC(=O)c2ccccc2)c(=O)n2c1[nH]c1ccccc12,plaque count,HEP-2,EC50,,Respiratory syncytial virus,LONG,,>40 µg/mL
O=C(O)NC[C@H]1CC(c2ccc(N3CCN(C(=O)CO)CC3)c(F)c2)=NO1,,,MIC,,Staphylococcus epidermidis,UC12084,,1 µg/mL
Cc1cc(S(N)(=O)=O)ccc1NC(=O)COc1ccc(Cl)cc1C(=O)c1cc(F)cc(C(F)(F)F)c1,β-galactosidase,HeLa + HELA CD4+,fold resistance,RT-E138K,HIV-1,HXB2,,~1
C[C@@]1(O)[C@H](O)[C@@H](CO)O[C@H]1n1ccn2c(=O)nc(N)nc12,,,EC50,,Dengue virus,TYPE 2,,>100 µM
CC(=O)Nc1ccc(Cn2cnc3c(Nc4cccc(F)c4)nc(C(F)(F)F)nc32)cc1,plaque count,M-HELA,EC50,,Rhinovirus,Serotype 4,,45 µM
Cc1cc(S(N)(=O)=O)ccc1NC(=O)COc1ccc(Cl)cc1C(=O)c1cccc(C#N)c1,cytopathic effect / propidium iodide,MT-4,fold resistance,RT-Y181C,HIV-1,Nevirapine-resistant (RT Y181C),,~1
CCCCCCCCOC(=O)[C@]1(O)C[C@@H](O)[C@@H](O)[C@H](OC(=O)/C=C/c2ccc(O)c(O)c2)C1,absorbance,,MIC50,,Aspergillus nomius,SLV 549,,1600 µM
CC[C@H]1OC(=O)[C@H](C)C(=O)[C@H](C)[C@@H](O[C@@H]2O[C@H](C)C[C@H](N(C)C)[C@H]2O)[C@@]2(C)C[C@@H](C)C(=NC(C)=O)[C@H](C)C(OC/C(=C\C=C\c3cccc([N+](=O)[O-])c3)CO2)[C@]1(C)O,,,MIC,,Haemophilus influenzae,33929 (ampicillin-resistant),,16 µg/mL
CCC(CC)O[C@@H]1C=C(C(=O)O)C[C@H](N)[C@H]1NC(C)=O,,MDCK,EC50,,Influenza A virus,Influenza A/Beijing/32/92 (H3N2),,0.23 µM
CCOP(=O)([O-])CCC(CO)OCn1cnc2c(=O)[nH]c(N)nc21,cytopathic effect,GPE,EC50,,Guinea pig cytomegalovirus,22122,,20 µg/mL
Nc1nc(NC2CC2)c2ncn(C=C3CC3CO)c2n1,plaque count,Rat embryo fibroblasts,EC50,,Rat cytomegalovirus,,,10.7 µM
Nc1nc2c(ncn2CCC(CO)CO)c(=O)[nH]1,plaque count,BHK-21,EC50,,Bovine herpesvirus 2,NEW YORK 1,,1.2 µg/mL
C[C@H](NC(=O)c1[nH]c(=O)n2c1CN(C(=O)c1ccc(Br)c(Cl)c1)CC2)c1ccccc1,PCR,HepG2.117,EC50,,Hepatitis B virus,,,0.5–5 µM
CC[C@H]1OC(=O)[C@H](C)C(=O)[C@H](C)[C@@H](O[C@@H]2O[C@H](C)C[C@H](N(C)C)[C@H]2O)[C@@]2(C)C[C@@H](C)C(=NC(C)=O)[C@H](C)[C@@H](OC/C(=N\Oc3ccccc3)CO2)[C@]1(C)O,,,MIC,,Streptococcus pneumoniae,700906 (erythromycin-resistant-ERM),,0.5 µg/mL
N#Cc1cc(NC(=O)c2ccccc2)c(=O)n2c1[nH]c1ccccc12,plaque count,HEP-2,EC50,,Respiratory syncytial virus,,,0.12 µg/mL
Nc1nc(=O)n2ccn([C@@H]3C[C@@H](O)[C@H](CO)O3)c2n1,,,EC50,,West Nile virus,,,>100 µM
O=C(O)NC[C@H]1CC(c2cc(F)c(N3CCN(C(=O)CO)CC3)c(F)c2)=NO1,,,MIC,,Staphylococcus epidermidis,UC12084,,0.5 µg/mL
COc1ccc(-n2c(C(=O)NCc3ccc(CC(N)=O)cc3)c3n(c2=O)CCN(C(=O)c2ccc(Br)c(Cl)c2)C3)cc1,PCR,HepG2.117,EC50,,Hepatitis B virus,,,0.5–5 µM
CC[C@H]1OC(=O)[C@H](C)C(=O)[C@H](C)[C@@H](O[C@@H]2O[C@H](C)C[C@H](N(C)C)[C@H]2O)[C@@]2(C)C[C@@H](C)C(=NC(C)=O)[C@H](C)C(OC/C(=C\C#Cc3ccc(N)cc3)CO2)[C@]1(C)O,,,MIC,,Streptococcus pneumoniae,7701 (erythromycin-resistant-MEF),,0.25 µg/mL
CSc1cc(-c2ccc(Br)cc2)c(C(=O)O)s1,,,MIC,,Trichophyton mentagrophytes,A-280,,50 µg/mL
CCC[C@H](O)C[C@@H]1CC[C@H](C)CCCCC(=O)N(C)[C@@H](Cc2ccc(OCCO)cc2)C(=O)O1,,,MIC,,Saccharomyces cerevisiae,PDR5,,12.5 µg/mL
CCOC(=O)c1cc(C#N)c2[nH]c3ccccc3n2c1=O,plaque count,VERO,EC50,,Mumps virus,ECXH-3-11,,100 µg/mL
CSc1cc(-c2ccc(-c3cccnc3)cc2)c(C(=O)O)s1,,,MIC,,Trichophyton mentagrophytes,A-280,,>100 µg/mL
CC[C@H]1OC(=O)[C@H](C)C(=O)[C@H](C)[C@@H](O[C@@H]2O[C@H](C)C[C@H](N(C)C)[C@H]2O)[C@@]2(C)C[C@@H](C)/C(=N\C(=O)OC)[C@H](C)C(OC/C(=C\C=C\c3ccccc3)CO2)[C@]1(C)O,,,MIC,,Haemophilus influenzae,33929 (ampicillin-resistant),,32 µg/mL
N#Cc1cc(C#N)c2[nH]c3ccccc3n2c1=O,plaque count,VERO,EC50,,Mumps virus,ECXH-3-11,,8.5 µg/mL
CCOC(=O)c1sc2cc(-c3ccc(Br)cc3)oc(=O)c2c1N,,,MIC,,Trichophyton mentagrophytes,A-280,,>100 µg/mL
Nc1nc2c(ncn2C=C2CC2CO)c(=O)[nH]1,plaque count,HFF,EC50,,Murine cytomegalovirus,,,11.6 µM
CCC(=O)N=C1[C@H](C)C[C@@]2(C)OC/C(=C/C=C/c3ccccc3)COC([C@H]1C)[C@](C)(O)[C@@H](CC)OC(=O)[C@H](C)C(=O)[C@H](C)[C@H]2O[C@@H]1O[C@H](C)C[C@H](N(C)C)[C@H]1O,,,MIC,,Streptococcus pneumoniae,700906 (erythromycin-resistant-ERM),,8 µg/mL
COC(=N)c1ncn([C@@H]2O[C@H](CO)[C@@H](O)[C@H]2O)n1,cytopathic effect,VERO,EC50,,Sandfly fever virus,Sicilian,,98 µg/mL
CCOC(=O)c1sc2cc(-c3cccc([N+](=O)[O-])c3)oc(=O)c2c1N,,,MIC,,Trichophyton mentagrophytes,A-280,,>100 µg/mL
Cc1cc(C#N)cc(C(=O)c2cc(Cl)ccc2OCC(=O)Nc2ccc(OCCCN3CC=CC3)cc2C)c1,cytopathic effect / propidium iodide,MT-4,EC50,,HIV-1,IIIB,,<0.01 µM
Nc1nc(=O)n2ccn([C@H]3C[C@H](O)[C@@H](CO)O3)c2n1,,,EC50,,Dengue virus,TYPE 2,,>100 µM
CC[C@H]1OC(=O)[C@H](C)C(=O)[C@H](C)[C@@H](O[C@@H]2O[C@H](C)C[C@H](N(C)C)[C@H]2O)[C@@]2(C)C[C@@H](C)C(=NC(C)=O)[C@H](C)[C@@H](OC/C(=N\OCC#Cc3ccc(N)nc3)CO2)[C@]1(C)O,,,MIC,,Streptococcus pneumoniae,7701 (erythromycin-resistant-MEF),,<0.06 µg/mL
C[C@H](NC(=O)c1c2n(c(=O)n1-c1ccc(OCC(F)(F)F)cc1)CCN(C(=O)c1ccc(Br)c(Cl)c1)C2)c1ccc(OC(F)(F)F)cc1F,PCR,HepG2.117,EC50,,Hepatitis B virus,,,0.5–5 µM
CC[C@H]1OC(=O)[C@H](C)C(=O)[C@H](C)[C@@H](O[C@@H]2O[C@H](C)C[C@H](N(C)C)[C@H]2O)[C@@]2(C)C[C@@H](C)C(=NC(C)=O)[C@H](C)[C@@H](OC/C(=N\OCc3ccc(-c4ncccn4)s3)CO2)[C@]1(C)O,,,MIC,,Streptococcus pneumoniae,700906 (erythromycin A-resistant),,<0.06 µg/mL
Cc1cc(S(N)(=O)=O)ccc1NC(=O)COc1ccc(Cl)cc1C(=O)c1cc(C#N)cc(C#N)c1,β-galactosidase,HeLa + HELA CD4+,fold resistance,RT-K103N,HIV-1,HXB2,,~1
O=C(O)NC[C@H]1CC(c2cc(F)c(N3CCOCC3)c(F)c2)=NO1,,,MIC,,Staphylococcus epidermidis,UC12084,,2 µg/mL
NC(=O)CCC(N=C(N)c1ncn([C@@H]2O[C@H](CO)[C@@H](O)[C@H]2O)n1)C(=O)O,cytopathic effect,VERO,EC50,,Sandfly fever virus,Sicilian,,547 µg/mL
COc1cc(O)c2c(=O)cc(-c3ccccc3)oc2c1CC=C(C)C,plaque count,LLC-MK2,inhibition,,Dengue virus,Type 2/Mexican isolate,6 µM,0%
COc1ccc(-n2c(C(=O)N[C@@H](c3ccccc3)C(C)C)c3n(c2=O)CCN(C(=O)c2ccc(Br)c(Cl)c2)C3)cc1,PCR,HepG2.117,EC50,,Hepatitis B virus,,,0.5–5 µM
CCOC(=O)c1sc2cc(-c3ccc([N+](=O)[O-])cc3)oc(=O)c2c1N,,,MIC,,Trichophyton mentagrophytes,A-280,,>100 µg/mL
CC[C@H]1OC(=O)[C@H](C)C(=O)[C@H](C)[C@@H](O[C@@H]2O[C@H](C)C[C@H](N(C)C)[C@H]2O)[C@@]2(C)C[C@@H](C)C(=NC(C)=O)[C@H](C)C(OC/C(=N\OCc3ccccc3)CO2)[C@]1(C)O,,,MIC,,Streptococcus pneumoniae,700906 (erythromycin-resistant-ERM),,0.5 µg/mL
CC[C@H]1OC(=O)[C@@](C)(F)C(=O)[C@H](C)[C@@H](O[C@@H]2O[C@H](C)C[C@H](N(C)C)[C@H]2O)[C@@]2(C)C[C@@H](C)C(=NC(C)=O)[C@H](C)[C@@H](OC/C(=N\OCc3ccc(-c4cccc(N)n4)s3)CO2)[C@]1(C)O,,,MIC,,Haemophilus influenzae,33929 (ampicillin-resistant),,4 µg/mL
O=[N+]([O-])c1ccc(Cn2cnc3c(Nc4cccc(F)c4)nc(C(F)(F)F)nc32)cc1,plaque count,M-HELA,EC50,,Rhinovirus,Serotype 2,,16.4 µM
Nc1ncnc2c1ncn2[C@@H]1C=C[C@@H](O)[C@H]1O,cytopathic effect,CV-1,EC50,,Measles virus,TN1994,,0.1 µg/mL
CC[C@H]1OC(=O)[C@H](C)C(=O)[C@H](C)[C@@H](O[C@@H]2O[C@H](C)C[C@H](N(C)C)[C@H]2O)[C@](C)(OC)C[C@@H](C)C(=O)[C@H](C)[C@H]2N(CCCCn3cnc(-c4cccnc4)c3)C(=O)O[C@]12C,,,MIC,,Haemophilus influenzae,33929 (ampicillin-resistant),,2 µg/mL
Nc1nc2c(ncn2COC2COP(=O)(O)OC2)c(=O)[nH]1,plaque count,MRC-5,EC50,,Simian varicella-zoster virus,,,2.3–4.7 µM
COc1cc(/C=C/C(C)=O)ccc1O,broth dilution,,MIC,,Aspergillus ochraceus,MTCC 4643,,911 µM
CCOC(=O)c1sc(SC)c(C(=O)OCC)c1O,,,MIC,,Trichophyton mentagrophytes,A-280,,>100 µg/mL
O=C(NCc1ccccc1-c1ncc[nH]1)c1c2n(c(=O)n1-c1ccc(OC3CC3)cc1)CCN(C(=O)c1ccc(Br)c(Cl)c1)C2,PCR,HepG2.117,EC50,,Hepatitis B virus,,,<0.1 µM
CC[C@H]1OC(=O)[C@@](C)(F)C(=O)[C@H](C)[C@@H](O[C@@H]2O[C@H](C)C[C@H](N(C)C)[C@H]2O)[C@@]2(C)C[C@@H](C)C(=NC(C)=O)[C@H](C)[C@@H](OC/C(=N\OCc3cccc(C(N)=O)c3)CO2)[C@]1(C)O,,,MIC,,Haemophilus influenzae,33929 (ampicillin-resistant),,4 µg/mL
CCOP(=O)([O-])CCCOCn1cnc2c(=O)[nH]c(N)nc21,cytopathic effect,GPE,EC50,,Guinea pig cytomegalovirus,22122,,50 µg/mL
CCOC(=O)c1sc2cc(-c3cccnc3)oc(=O)c2c1N,,,MIC,,Trichophyton mentagrophytes,A-280,,>100 µg/mL
O=C(O)NC[C@H]1CC(c2ccc(-n3ccnc3)c(F)c2)=NO1,,,MIC,,Staphylococcus epidermidis,UC12084,,1 µg/mL
Nc1ncnc2c1ncn2[C@@H]1CC[C@@H](O)[C@H]1O,cytopathic effect,CV-1,EC50,,Measles virus,Chicago,,<0.1 µg/mL
Fc1cccc(Cn2cnc3c(Nc4cccc(F)c4)nc(C(F)(F)F)nc32)c1,plaque count,M-HELA,EC50,,Rhinovirus,Serotype 30,,>5 µM
CC[C@H]1OC(=O)[C@H](C)C(=O)[C@H](C)[C@@H](O[C@@H]2O[C@H](C)C[C@H](N(C)C)[C@H]2O)[C@@]2(C)C[C@@H](C)C(=NC(C)=O)[C@H](C)C(OC/C(=C\C#Cc3ccccc3)CO2)[C@]1(C)O,,,MIC,,Streptococcus pneumoniae,7701 (erythromycin-resistant-MEF),,0.25 µg/mL
Cc1cc(C#N)cc(C(=O)c2cc(Cl)ccc2OCC(=O)Nc2ccc(S(N)(=O)=O)cc2C)c1,β-galactosidase,HeLa + HELA CD4+,EC50,RT-V108I Y181C,HIV-1,HXB2,,<0.01 µM
CNC(=O)c1ncn([C@@H]2O[C@H](CO)[C@@H](O)[C@H]2O)n1,cytopathic effect,VERO,EC50,,Sandfly fever virus,Sicilian,,>320 µg/mL
CC[C@H]1OC(=O)[C@H](C)C(=O)[C@H](C)[C@@H](O[C@@H]2O[C@H](C)C[C@H](N(C)C)[C@H]2O)[C@@]2(C)C[C@@H](C)C(=NC(C)=O)[C@H](C)C(OC/C(=N\OCC#Cc3cccc(N)n3)CO2)[C@]1(C)O,,,MIC,,Streptococcus pneumoniae,7701 (erythromycin-resistant-MEF),,0.13 µg/mL
CCOC(=O)c1sc2cc(-c3ccc(OC)cc3)oc(=O)c2c1N,,,MIC,,Trichophyton mentagrophytes,A-280,,>100 µg/mL
CCCCN=C(N)c1ncn([C@@H]2O[C@H](CO)[C@@H](O)[C@H]2O)n1,cytopathic effect,VERO,EC50,,Sandfly fever virus,Sicilian,,73 µg/mL